Here are results for one substance from patent publication US4708871A, “Antigenically active amino acid sequences” (priority 1983, dated 1987).

This data set concerns anti-intact virus particle type A10 antiserum. It counts as binding, rabbit.

No end group written: not given here.

With DLGSIA [D - L - G - S - I - A], the “Contribution to the virus particle-associated antigenic determinant” value is given as “principal loci”.
